## Sequence variants of PSTVd loop 6 after infection

Data from the supplement of Wu et al. 2024, doi:10.1371/journal.ppat.1012142.

The pool varies loop 6 of the PSTVd intermediate strain in the pattern UNNNCGNNNG; wild type is UGACCGCGAG (upper and lower strand joined, each 5' to 3', the first 5 letters being the upper strand, closing pairs included).

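Three N. benthamiana plants were inoculated with the whole mutant pool. Samples came from the inoculated region at 5 days, the leaf margin at 10 and upper systemic leaves at 12.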

Values are reads per thousand in the sample; higher means more abundant, 0 means not found. Each value is the mean of three plants. "Pool" is the share in the plasmid pool used as inoculum, on the same scale. The inoculated region was read from the minus strand, the other sites from the plus strand. IR is the inoculated region, LM the leaf margin, Sys the systemic leaves. With 36,220-57,551 reads a sample, very low values are single reads. Sequences that differ at fixed positions probably stem from PCR or sequencing errors, and defective variants can be carried along by functional ones. For reference, wild type rose from 20.7 per thousand in the pool to 195, 198, 203 (inoculated region), 629, 591, 734 (leaf margin) and 942, 870, 868 (systemic leaves).

For UGACCGUAGG (pool 0.327) the result was IR 0.244; LM 0.479; Sys 0.0926. For UCUUCGGAAG (pool 0.209) the result was IR 0.0955; LM 0.0169; Sys 0. With UAAUCGUGAG (pool 0.261) the assay gave IR 0.166; LM 0.00773; Sys 0. UCUACGGUGG (pool 0.392) gave IR 0.0894; LM 0.0169; Sys 0. UAGCCGUCGG (pool 0.248) gave IR 0.0828; LM 0.0512; Sys 0. UAUACGUGGG (pool 0.248) read IR 0.0652; LM 0.00773; Sys 0.

UGCGCGUAGG (pool 0.183) gave IR 0.0908; LM 0; Sys 0. UAGGCGCAGG (pool 0.248) read IR 0.119; LM 0; Sys 0. With UGUCCGUACG (pool 0.353) the assay gave IR 0.113; LM 0; Sys 0. UAUCCGCCGG (pool 0.222) gave IR 0.0891; LM 0.00920; Sys 0. With UUCACGUUUG (pool 0.641) the assay gave IR 0.0902; LM 0; Sys 0.00684. UUGCCGAGCG (pool 0.261) read IR 0.120; LM 0; Sys 0.

With CGACCGACAG (pool 0.0131) the assay gave IR 0.492; LM 0.0690; Sys 0. UUUACGUCAG (pool 0.288) read IR 0.0710; LM 0.00920; Sys 0. UUGACGGCGG (pool 0.196) gave IR 0.0905; LM 0; Sys 0. UACCCGGGAG (pool 0.183) gave IR 0.0899; LM 0; Sys 0. UUUCCGGCGG (pool 0.209) gave IR 0.0953; LM 0.00773; Sys 0. UAGGCGUCGG (pool 0.275) gave IR 0.107; LM 0; Sys 0.0136.

With UAAACGUGUG (pool 0.170) the assay gave IR 0.729; LM 0.0368; Sys 0.0324. UUCCCGGGGG (pool 0.170) gave IR 0.0478; LM 0.00773; Sys 0. With UUGCCGGGUU (pool 0.0131) the assay gave IR 0; LM 0; Sys 0. UACGCGGUAG (pool 0.235) read IR 0.0777; LM 0.00920; Sys 0. UGAGCGCCAG (pool 0.235) read IR 0.0847; LM 0; Sys 0. With UCAUCGGCCG (pool 0.209) the assay gave IR 0.0771; LM 0.0247; Sys 0.

UAGUCGCGAG (pool 0.196) gave IR 0.143; LM 0.0452; Sys 0.0673. With UCUGCGCCCG (pool 0.471) the assay gave IR 0.0954; LM 0; Sys 0.00684. With UACCCGAUUG (pool 0.327) the assay gave IR 0.0837; LM 0; Sys 0. For UCAUCGUGAG (pool 0.261) the result was IR 0.167; LM 0.00773; Sys 0. For UAUACGUUGG (pool 0.366) the result was IR 0.0944; LM 0.00773; Sys 0. UUAACGGGAG (pool 0.209) read IR 3.75; LM 1.14; Sys 0.414.

A selection of 2 entries from above:

| sequence | pool | IR | LM | Sys |
|---|---|---|---|---|
| UUAACGGGAG | 0.209 | 3.75 | 1.14 | 0.414 |
| UAGCCGUCGG | 0.248 | 0.0828 | 0.0512 | 0 |